This test has as its target recombinant hACE2-Fc protein (GenScript) (human) (UniProt Q9BYF1).

Data on one substance can be found in US20230256082A1.

Broadly, the EC50 is the concentration at which the effect is half-maximal.

As for “Recombinant SARS-CoV-2 spike protein containing only the ectodomain (S1S2) (from UniProt P0DTC2 14-1204) (other; other documents disagree on this pair)”, the concentration giving a half-maximal response (EC50) is 0.14 µg/mL.
